## Potato spindle tuber viroid, loop 15: variant abundance in plants

Region: loop 15 of PSTVd (intermediate strain), upper and lower strand joined, each 5' to 3', the first 7 letters being the upper strand, closing pairs included. Wild type: GGAAACCGCUACUAC. Varied positions (N): GGAAACCGNNNNNNC.

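A pool of all variants was put on leaves of three Nicotiana benthamiana plants. Samples came from the inoculated region at 5 days, the leaf margin at 10 and upper systemic leaves at 12.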

Numbers give reads per thousand; 0 = not seen among the reads, higher = more abundant. Each site shows the three plants. "Pool" is the share in the plasmid pool used as inoculum, on the same scale. The inoculated region was read from the minus strand, the other sites from the plus strand.

sequence	pool	inoculated region	leaf margin	systemic leaves
GGAAACCGUCGAACC	0.176	0.0491 / 0.0964 / 0.0381	0 / 0 / 0	0 / 0 / 0
GGAAACCGUGGAUCC	0.256	0.131 / 0.0643 / 0.133	0 / 0 / 0.0200	0 / 0 / 0
GGAAACCGUAAAUGC	0.160	0.360 / 0.193 / 0.438	0.0970 / 0.111 / 0.120	0.0483 / 0.0454 / 0.0684
GGAAACCGAACCAUC	0.400	0.0491 / 0.112 / 0.0952	0.0162 / 0 / 0.0200	0.0161 / 0 / 0
GGAAACCGCCCUUCC	0.208	0.115 / 0.0964 / 0.0571	0 / 0.0223 / 0	0 / 0 / 0
GGAAACCGACAUAGC	0.352	0.0983 / 0.0964 / 0.0381	0 / 0 / 0	0 / 0 / 0
GGAAACCGUUCCCGC	0.128	0.115 / 0.0643 / 0.114	0.0323 / 0 / 0.0200	0 / 0 / 0
GGAAACCGAGGCCAC	0.208	0.0655 / 0.0482 / 0.114	0 / 0 / 0.0200	0 / 0 / 0
GGAAACCGCGAUGCC	0.208	0.0983 / 0.129 / 0.114	0 / 0 / 0.0200	0 / 0 / 0
GGAAACCGAUUUUCC	0.176	0.0491 / 0.112 / 0.133	0.0162 / 0 / 0	0 / 0 / 0
GGAAACCGUGACAGC	0.304	0.246 / 0.161 / 0.171	0.0162 / 0 / 0.0200	0 / 0 / 0
GGAAACCGCACAGAC	0.208	0.115 / 0.0482 / 0.0762	0 / 0 / 0	0 / 0 / 0
GGAAACCGCGCUUGC	0.240	0.0983 / 0.0643 / 0.209	0.0485 / 0.0223 / 0.0200	0 / 0 / 0
GGAAACCGAAAUGGC	0.256	0.180 / 0.289 / 0.267	0.0323 / 0 / 0.0401	0.0161 / 0 / 0
GGAAACCGGGUAAGC	0.224	0.115 / 0.0321 / 0.0952	0 / 0.0445 / 0	0 / 0 / 0
GGAAACCGCUGAUUC	0.192	0.197 / 0.145 / 0.305	0.0485 / 0.111 / 0.120	0.0483 / 0 / 0
GGAAACCGUAGUGUC	0.128	0.0491 / 0.0321 / 0.0571	0.0162 / 0 / 0.0200	0 / 0 / 0
GGAAACCGAAGAUAC	0.336	0.541 / 0.337 / 0.495	0.0970 / 0.178 / 0.260	0.113 / 0 / 1.23
GGAAACCGCAAGCGC	0.240	0.0983 / 0.0803 / 0.0952	0 / 0 / 0	0 / 0 / 0
GGAAACCGUAACGUC	0.224	0.0655 / 0.0643 / 0.133	0 / 0 / 0.0200	0 / 0 / 0
GGAAACCGCCGAAGC	0.256	0.0655 / 0.161 / 0.0762	0 / 0 / 0	0 / 0 / 0
GGAAACCGUGGUAAC	0.256	0.0328 / 0.0321 / 0.0190	0.0162 / 0.0223 / 0.0200	0 / 0 / 0
GGAAACCGACCGGAC	0.288	0.295 / 0.161 / 0.228	0.0808 / 0.0223 / 0.160	0.0644 / 0 / 0
GGAAACCGUCUACUC	0.160	0.131 / 0.129 / 0.0571	0 / 0 / 0.0200	0.0161 / 0 / 0
GGAAACCGCCUAAAC	0.304	0.164 / 0.0803 / 0.133	0.0162 / 0 / 0	0 / 0 / 0
GGAAACCGGACAUAC	0.240	0.0491 / 0.0482 / 0.0571	0 / 0 / 0.0401	0 / 0 / 0
GGAAACCGUAUUGAC	0.224	0.164 / 0.129 / 0.0952	0.0162 / 0 / 0	0 / 0 / 0
GGAAACCGGCGUCCC	0.384	0.131 / 0.112 / 0.0762	0 / 0 / 0	0.0161 / 0 / 0
GGAAACCGGGGUAGC	0.176	0.0819 / 0.0482 / 0.0571	0.0162 / 0.0223 / 0	0 / 0 / 0
GGAAACCGUGCGGAC	0.336	0.229 / 0.337 / 0.476	0.0647 / 0.111 / 0.100	0.0644 / 0.0454 / 0
GGAAACCGCCCUCUC	0.256	0.115 / 0.0803 / 0.152	0 / 0 / 0.0200	0 / 0 / 0
GGAAACCGGGUAGAC	0.176	0.0655 / 0.0803 / 0.114	0 / 0 / 0.0601	0 / 0 / 0
GGAAACCGAACAACC	0.144	0.0819 / 0.161 / 0.0762	0.0162 / 0 / 0.0200	0 / 0 / 0
GGAAACCGGAAUAGC	0.304	0.147 / 0.0964 / 0.0952	0 / 0.0223 / 0	0 / 0 / 0
GGAAACCGGGUCAAC	0.304	0.0655 / 0.0964 / 0.114	0 / 0.0223 / 0.0401	0 / 0 / 0
GGAAACCGAACGACC	0.272	0.0491 / 0.0803 / 0.0571	0 / 0 / 0	0 / 0 / 0
GGAAACCGGUCACAC	0.240	0.164 / 0.129 / 0.0571	0.0162 / 0 / 0.0200	0 / 0 / 0
GGAAACCGGACGAAC	0.304	0.0983 / 0.0482 / 0.114	0 / 0.0223 / 0	0 / 0 / 0
GGAAACCGGGCAUCC	0.240	0.147 / 0.0964 / 0.114	0.0162 / 0 / 0	0 / 0 / 0
GGAAACCGUAGGACC	0.0960	0.164 / 0.0482 / 0.0952	0 / 0 / 0	0 / 0 / 0.0456
GGAAACCGAAGCCGC	0.272	0.0983 / 0.0964 / 0.0952	0 / 0 / 0	0 / 0 / 0.0228
GGAAACCGAGGGAAC	0.240	0.131 / 0.145 / 0.114	0 / 0 / 0.0200	0 / 0 / 0
GGAAACCGCUAAUCC	0.304	0.262 / 0.369 / 0.381	0.0485 / 0.134 / 0.120	0.0483 / 0.121 / 0.0456
GGAAACCGCCGAGCC	0.256	0.0819 / 0.0643 / 0.0571	0 / 0 / 0.0200	0 / 0 / 0
GGAAACCGGAAUCGC	0.144	0.0819 / 0.112 / 0.0571	0 / 0 / 0.0200	0 / 0 / 0
GGAAACCGCGUACUC	0.160	0.131 / 0.0803 / 0.248	0.0162 / 0 / 0.0200	0 / 0 / 0
GGAAACCGGUGCCUC	0.304	0.0491 / 0.0643 / 0.0952	0 / 0 / 0.0200	0 / 0 / 0
GGAAACCGUAGCGAC	0.320	0.0983 / 0.145 / 0.0381	0.0162 / 0.0445 / 0	0 / 0 / 0
GGAAACCGAAUCGGC	0.224	0.115 / 0.0482 / 0.114	0 / 0 / 0	0 / 0 / 0
GGAAACCGUUUAUGC	0.240	0.0819 / 0.0643 / 0.0381	0.0162 / 0 / 0.0401	0 / 0 / 0
GGAAACCGAACUACC	0.224	0.0655 / 0.0643 / 0.0952	0.0162 / 0 / 0	0 / 0 / 0
GGAAACCGUUUGCCC	0.208	0.180 / 0.129 / 0.114	0.0323 / 0.0223 / 0.0401	0 / 0 / 0
GGAAACCGCAAUUCC	0.144	0.0819 / 0.241 / 0.0762	0.0162 / 0.0223 / 0.0200	0 / 0 / 0
GGAAACCGCGGUGUC	0.128	0.0655 / 0.112 / 0.0571	0.0162 / 0 / 0	0 / 0 / 0
GGAAACCGAGGGACC	0.144	0.0819 / 0.0964 / 0.0952	0.0323 / 0 / 0.0200	0 / 0 / 0
GGAAACCGAUAUUGC	0.224	0.311 / 0.434 / 0.533	0.0970 / 0.0668 / 0.120	0.0161 / 0.106 / 0.114
GGAAACCGGAGCAGC	0.240	0.147 / 0.0964 / 0.0952	0 / 0 / 0.0200	0 / 0 / 0
GGAAACCGUAUGUGC	0.256	0.344 / 0.386 / 0.324	0.113 / 0.134 / 0.160	0.0161 / 0 / 0.0228
GGAAACCGGUAGAAC	0.288	0.360 / 0.289 / 0.381	0.113 / 0.111 / 0.100	0.0805 / 0.0303 / 0.0684
GGAAACCGUUCGCUC	0.208	0.0491 / 0.0482 / 0.114	0 / 0 / 0	0 / 0 / 0
GGAAACCGUACAACC	0.176	0.0491 / 0.0643 / 0.0762	0 / 0.0223 / 0.0401	0 / 0 / 0

Extract of 7 entries:

{"sequence": "GGAAACCGGAGCAGC", "pool": "0.240", "inoculated region": "0.147 / 0.0964 / 0.0952", "leaf margin": "0 / 0 / 0.0200", "systemic leaves": "0 / 0 / 0"}
{"sequence": "GGAAACCGGAAUCGC", "pool": "0.144", "inoculated region": "0.0819 / 0.112 / 0.0571", "leaf margin": "0 / 0 / 0.0200", "systemic leaves": "0 / 0 / 0"}
{"sequence": "GGAAACCGUACAACC", "pool": "0.176", "inoculated region": "0.0491 / 0.0643 / 0.0762", "leaf margin": "0 / 0.0223 / 0.0401", "systemic leaves": "0 / 0 / 0"}
{"sequence": "GGAAACCGUAUUGAC", "pool": "0.224", "inoculated region": "0.164 / 0.129 / 0.0952", "leaf margin": "0.0162 / 0 / 0", "systemic leaves": "0 / 0 / 0"}
{"sequence": "GGAAACCGCACAGAC", "pool": "0.208", "inoculated region": "0.115 / 0.0482 / 0.0762", "leaf margin": "0 / 0 / 0", "systemic leaves": "0 / 0 / 0"}
{"sequence": "GGAAACCGAACGACC", "pool": "0.272", "inoculated region": "0.0491 / 0.0803 / 0.0571", "leaf margin": "0 / 0 / 0", "systemic leaves": "0 / 0 / 0"}
{"sequence": "GGAAACCGGAAUAGC", "pool": "0.304", "inoculated region": "0.147 / 0.0964 / 0.0952", "leaf margin": "0 / 0.0223 / 0", "systemic leaves": "0 / 0 / 0"}

For reference, wild type rose from 33.9 per thousand in the pool to 202, 200, 159 (inoculated region), 724, 746, 710 (leaf margin) and 856, 883, 880 (systemic leaves). Sequences that differ at fixed positions probably stem from PCR or sequencing errors, and defective variants can be carried along by functional ones. Samples held 43,870 to 66,106 reads, so the smallest values rest on one or two reads.

From the data files of Wu et al. 2024, doi:10.1371/journal.ppat.1012142.